Anti-infective test results gathered from many reports (values: NIAID ChemDB through PubChem).

All rows: whole-cell or culture tests; organism: Candida albicans; read by: agar diffusion; endpoint: zone

Zones are inhibition diameters on agar. Neighbouring rows are from separate reports.

CSC1=NC(c2ccc(O)cc2)C(C#N)=C(N)N1 ; tested at: 100 µg/mL ; strain or isolate: MTCC 227 ; result: 20 mm
C[C@H]1[C@H](O)[C@@H](C)/C=C/C=C/C=C/C=C/C=C/C=C/C=C/[C@H](O[C@@H]2O[C@H](C)[C@@H](O)[C@H](N)[C@@H]2O)C[C@@H]2O[C@](O)(C[C@@H](O)C[C@@H](O)CC[C@H](O)[C@@H](O)C[C@@H](O)CC(=O)O[C@H]1C)C[C@H](O)[C@H]2C(=O)O ; tested at: 100 µg/mL ; strain or isolate: CN ; result: 10 mm
C/C=C/C1=CC2=CC(=O)[C@](C)(OC(=O)c3c(OC)cc(O)c(O)c3C)C(=O)C2=CO1 ; tested at: 20 µg/disc ; strain or isolate: ATCC 64548 ; result: 0 mm
CN1CCN(Cn2nc(C34CC5CC(CC(C5)C3)C4)n(/N=C/c3c(Cl)cccc3Cl)c2=S)CC1 ; tested at: 200 µg/disc ; strain or isolate: IFO 3007 ; result: <10 mm
Cn1c(=O)c(-c2[nH][nH]c(=O)c2N=Nc2ccc(N)cc2)c(O)c2ccccc21 ; tested at: 1 mg/mL ; strain or isolate: ATCC 10231 ; result: 13 mm
CCOC(=O)C1CCN(Cn2nc(C34CC5CC(CC(C5)C3)C4)n(/N=C/c3ccccc3Cl)c2=S)CC1 ; tested at: 200 µg/disc ; strain or isolate: IFO 3007 ; result: <10 mm
CS(=O)(=O)c1nc(N)c(C#N)c(-c2ccccc2O)n1 ; tested at: 25 µg/mL ; strain or isolate: MTCC 227 ; result: 16 mm
S=c1[nH]nc(C23CC4CC(CC(C4)C2)C3)n1/N=C/c1ccc(Cl)cc1Cl ; tested at: 200 µg/disc ; strain or isolate: IFO 3007 ; result: <10 mm
Cn1c(=O)c(-c2[nH][nH]c(=O)c2N=Nc2ccc(Br)cc2)c(O)c2ccccc21 ; tested at: 1 mg/mL ; strain or isolate: ATCC 10231 ; result: 8 mm
COc1ccc(C2N=C(SC)NC(N)=C2C#N)cc1 ; tested at: 25 µg/mL ; strain or isolate: MTCC 227 ; result: 17 mm
CN1C(=O)/C(=c2/[nH][nH]c(=O)/c2=C\c2ccccc2)C(=O)c2ccccc21 ; tested at: 1 mg/mL ; strain or isolate: ATCC 10231 ; result: 14 mm
CSC1=NC(c2ccccc2[N+](=O)[O-])C(C#N)=C(N)N1 ; tested at: 50 µg/mL ; strain or isolate: MTCC 227 ; result: 18 mm
CCOC(=O)C1CCN(Cn2nc(C34CC5CC(CC(C5)C3)C4)n(/N=C/c3ccc(OC)c(OC)c3)c2=S)CC1 ; tested at: 200 µg/disc ; strain or isolate: IFO 3007 ; result: <10 mm
CS(=O)(=O)c1nc(N)c(C#N)c(-c2ccccc2Cl)n1 ; tested at: 25 µg/mL ; strain or isolate: MTCC 227 ; result: 17 mm
Cn1c(=O)c(-c2[nH][nH]c(=O)c2N=Nc2ccccc2)c(O)c2ccccc21 ; tested at: 1 mg/mL ; strain or isolate: ATCC 10231 ; result: 10 mm